# Where two headings read alike, the source gives them in different places.
# Assays:
# Experiment in all cases: cell-based or functional assay
# [1] = biological target: SARS-CoV-2 spike (S) protein, Victoria strain (SARS-CoV-2)
# [2] = biological target: SARS-CoV-2 Victoria spike (S) protein (SARS-CoV-2)
# [3] = biological target: SARS-CoV-2 spike (S) protein, Victoria strain (Wuhan + S247R) (SARS-CoV-2)
# [4] = biological target: SARS-CoV-2 Victoria spike (S) protein (Wuhan + S247R) (SARS-CoV-2)
# [5] = biological target: SARS-CoV-2 spike (S) protein, Omicron BA.1 (SARS-CoV-2) (UniProt P0DTC2)
# [6] = biological target: SARS-CoV-2 spike (S) protein, Victoria strain (SARS-CoV-2); remark: listed apart in the source
# [7] = biological target: SARS-CoV-2 spike (S) protein, Omicron BA.3 (SARS-CoV-2) (UniProt P0DTC2)
# [8] = biological target: SARS-CoV-2 spike (S) protein, Omicron BA.1.1 (SARS-CoV-2) (UniProt P0DTC2)
# [9] = biological target: SARS-CoV-2 spike (S) protein, Omicron BA.4/5 (SARS-CoV-2) (UniProt P0DTC2)
# [10] = biological target: SARS-CoV-2 spike (S) protein, Omicron BA.2.75 (SARS-CoV-2) (UniProt P0DTC2)
# [11] = biological target: SARS-CoV-2 spike (S) protein, Omicron BA.2 (SARS-CoV-2) (UniProt P0DTC2)
# [12] = biological target: SARS-CoV-2 spike (S) protein, Omicron BA.4/5 (SARS-CoV-2) (UniProt P0DTC2); remark: listed apart in the source
# [13] = biological target: SARS-CoV-2 spike (S) protein, Omicron BA.2.3.20 (SARS-CoV-2) (UniProt P0DTC2)
# [14] = biological target: SARS-CoV-2 spike (S) protein, Omicron BA.2.75.2 (SARS-CoV-2) (UniProt P0DTC2)
# [15] = biological target: SARS-CoV-2 spike (S) protein, Omicron BA.4.6 (SARS-CoV-2) (UniProt P0DTC2)
# [16] = biological target: SARS-CoV-2 spike (S) protein, Omicron BA.2.75 (SARS-CoV-2) (UniProt P0DTC2); remark: listed apart in the source
# [17] = biological target: SARS-CoV-2 spike (S) protein, Omicron BA.2 (SARS-CoV-2) (UniProt P0DTC2); remark: listed apart in the source
# [18] = biological target: SARS-CoV-2 Alpha (B.1.1.7) spike (S) protein (SARS-CoV-2) (UniProt P0DTC2)
# [19] = biological target: SARS-CoV-2 spike (S) protein, Omicron BA.1 (SARS-CoV-2) (UniProt P0DTC2); remark: listed apart in the source
# [20] = biological target: SARS-CoV-2 spike (S) protein, Omicron BA.1.1 (SARS-CoV-2) (UniProt P0DTC2); remark: listed apart in the source
# [21] = biological target: SARS-CoV-2 spike (S) protein, Omicron BA.2 + G446S (SARS-CoV-2) (UniProt P0DTC2)
# [22] = biological target: SARS-CoV-2 spike (S) protein, Omicron BA.2 + D339H (SARS-CoV-2) (UniProt P0DTC2)
# [23] = biological target: SARS-CoV-2 spike (S) protein, Omicron BA.3 (SARS-CoV-2) (UniProt P0DTC2); remark: listed apart in the source
# [24] = biological target: SARS-CoV-2 spike (S) protein, Omicron BA.2 + N460K (SARS-CoV-2) (UniProt P0DTC2)
# [25] = biological target: SARS-CoV-2 Omicron BA.1 spike (S) protein of the live isolate (SARS-CoV-2)
# [26] = biological target: SARS-CoV-2 Omicron BA.1.1 spike (S) protein (SARS-CoV-2)
# [27] = biological target: SARS-CoV-2 Omicron BA.4/5 spike (S) protein (SARS-CoV-2)
substance,measurement,setting,value
Ly-CoV16 (antibody),"IC50, pseudovirus",[1],14 ng/mL
same,"IC50 (ug/ml), authentic virus",[2],0.034 µg/mL
same,IC50 (pseudovirus neutralization),[3],14 ng/mL
Ly-CoV555 (antibody),"IC50, pseudoviral neutralization",[4],2 ng/mL
same,IC50 (pseudovirus neutralization),[3],22 ng/mL
Ly-CoV1404,"IC50, pseudovirus",[5],2 ng/mL
Ly-CoV1404 (antibody),"IC50, pseudovirus",[6],1 ng/mL
same,"IC50, pseudovirus",[7],2 ng/mL
same,"IC50, pseudovirus",[8],1 ng/mL
same,"IC50, pseudovirus",[9],2 ng/mL
same,"IC50, pseudovirus",[10],2 ng/mL
same,"IC50, pseudovirus",[11],2 ng/mL
same,IC50 (pseudovirus neutralization),[12],1 ng/mL
same,IC50 (pseudovirus neutralization),[13],13 ng/mL
same,"IC50, pseudoviral neutralization",[4],1 ng/mL
same,IC50 (pseudovirus neutralization),[14],1 ng/mL
same,IC50 (pseudovirus neutralization),[3],1 ng/mL
same,IC50 (pseudovirus neutralization),[15],1 ng/mL
same,IC50 (pseudovirus neutralization),[16],22 ng/mL
same,IC50 (pseudovirus neutralization),[17],1 ng/mL
Ly-CoV-555 (antibody),"IC50, pseudovirus",[1],2 ng/mL
same,"IC50 (ug/ml), authentic virus",[2],0.006 µg/mL
same,"IC50 (ug/ml), authentic virus",[18],0.009 µg/mL
Omi-03,IC50 against PV,[19],5 ng/mL
Omi-03 (antibody),IC50 against PV,[1],3 ng/mL
same,IC50 against PV,[20],3 ng/mL
same,IC50,[21],5 ng/mL
same,IC50 against PV,[12],37 ng/mL
same,IC50 (pseudovirus neutralization),[13],20 ng/mL
same,IC50 (pseudovirus neutralization),[14],546 ng/mL
same,IC50 (pseudovirus neutralization),[3],3 ng/mL
same,IC50,[22],6 ng/mL
same,IC50 (pseudovirus neutralization),[15],6 ng/mL
same,IC50,[17],8 ng/mL
same,IC50 (pseudovirus neutralization),[17],8 ng/mL
same,IC50 against PV,[17],8 ng/mL
Omi-12,IC50 against PV,[19],2 ng/mL
Omi-12 (antibody),IC50 against PV,[1],6 ng/mL
same,IC50 against PV,[23],6 ng/mL
same,IC50 against PV,[20],2 ng/mL
same,IC50,[21],3 ng/mL
same,IC50 (pseudovirus neutralization),[12],429 ng/mL
same,IC50 against PV,[12],429 ng/mL
same,IC50 (pseudovirus neutralization),[13],8 ng/mL
same,IC50 (pseudovirus neutralization),[14],> 10000 ng/mL
same,IC50 (pseudovirus neutralization),[3],6 ng/mL
same,IC50,[22],3 ng/mL
same,IC50 (pseudovirus neutralization),[15],74 ng/mL
same,IC50,[16],3 ng/mL
same,IC50 (pseudovirus neutralization),[16],3 ng/mL
same,IC50 against PV,[16],3 ng/mL
same,IC50,[17],3 ng/mL
same,IC50 (pseudovirus neutralization),[17],3 ng/mL
same,IC50 against PV,[17],3 ng/mL
Omi-18,IC50 against PV,[19],2 ng/mL
Omi-18 (antibody),IC50 against PV,[1],8 ng/mL
same,IC50 against PV,[23],6 ng/mL
same,IC50 against PV,[20],2 ng/mL
same,IC50,[21],3 ng/mL
same,IC50 (pseudovirus neutralization),[12],5 ng/mL
same,IC50 against PV,[12],5 ng/mL
same,IC50 (pseudovirus neutralization),[13],11 ng/mL
same,IC50 (pseudovirus neutralization),[14],4800 ng/mL
same,IC50 (pseudovirus neutralization),[3],8 ng/mL
same,IC50,[22],3 ng/mL
same,IC50 (pseudovirus neutralization),[15],6 ng/mL
same,IC50,[17],5 ng/mL
same,IC50 (pseudovirus neutralization),[17],5 ng/mL
same,IC50 against PV,[17],5 ng/mL
Omi-29 (antibody),IC50 against PV,[1],14 ng/mL
same,IC50 (pseudovirus neutralization),[12],396 ng/mL
same,IC50 against PV,[12],396 ng/mL
same,IC50 (pseudovirus neutralization),[3],14 ng/mL
same,IC50 (pseudovirus neutralization),[15],170 ng/mL
Omi-42,IC50 against PV,[19],7 ng/mL
Omi-42 (antibody),IC50 against PV,[1],13 ng/mL
same,IC50 against PV,[20],6 ng/mL
same,IC50,[24],7 ng/mL
same,IC50 against PV,[24],7 ng/mL
same,IC50 (pseudovirus neutralization),[13],28 ng/mL
same,IC50 (pseudovirus neutralization),[3],33 ng/mL
same,IC50 (pseudovirus neutralization),[15],10 ng/mL
same,IC50,[16],3 ng/mL
same,IC50 (pseudovirus neutralization),[16],3 ng/mL
same,IC50 against PV,[16],3 ng/mL
REGN10933 (antibody),"IC50, pseudovirus",[1],1 ng/mL
same,"IC50 (ug/ml), authentic virus",[2],0.004 µg/mL
same,"IC50, pseudoviral neutralization",[4],1 ng/mL
same,IC50 (pseudovirus neutralization),[3],1 ng/mL
REGN10987 (antibody),"IC50, pseudovirus",[1],2 ng/mL
same,"IC50 (ug/ml), authentic virus",[2],0.032 µg/mL
same,"IC50, pseudoviral neutralization",[4],2 ng/mL
same,IC50 (pseudovirus neutralization),[3],2 ng/mL
S309 (antibody),"IC50, pseudovirus",[6],79 ng/mL
same,"IC50 (ug/ml), authentic virus",[25],0.256 µg/mL
same,"IC50, pseudovirus",[1],130 ng/mL
same,"IC50 (ug/ml), authentic virus",[2],0.04 µg/mL
same,"IC50 (ug/ml), authentic virus",[26],1.12 µg/mL
same,"IC50, pseudoviral neutralization",[27],589 ng/mL

# — patent US20230265170A1
